Results of unrelated studies side by side (data: NIAID ChemDB).

Shared fields: growth or infection tests; organism: Candida albicans; endpoint: MIC50

Neighbouring rows are from separate reports. Two numbers with a dash give a range or band. MIC50, MIC90 and the like: level of inhibition, or share of isolates inhibited.

O=c1[nH]n(-c2ccccc2)c(=O)c2cc3c(cc12)[nH]c1ccccc13 ; strain or isolate: Clinical isolates ; read by: agar ; value: 16–32 µg/mL
CCCCCOc1ccc(-c2ccc(-c3ccc(C(=O)N[C@H]4C[C@@H](O)[C@@H](O)NC(=O)[C@@H]5[C@@H](O)[C@@H](C)CN5C(=O)[C@H]([C@H](C)O)NC(=O)[C@H]([C@H](O)[C@@H](O)c5ccc(O)cc5)NC(=O)[C@@H]5C[C@@H](O)CN5C(=O)[C@H]([C@H](C)O)NC4=O)cc3)cc2)cc1 ; strain or isolate: 99 isolates ; value: 0.02 µg/mL
NC[C@@H]1O[C@H](O[C@H]2[C@@H](O)[C@H](O[C@@H]3[C@@H](O)[C@H](N)C[C@H](N)[C@H]3O[C@H]3O[C@H](CN)[C@@H](O)[C@H](O)[C@H]3N)O[C@@H]2CO)[C@H](N)[C@@H](O)[C@@H]1O ; value: 1.1 µg/mL
COc1ccc(C(Cc2ccc(Cl)cc2)n2ccnc2)cc1 ; strain or isolate: 34 strains ; value: 8 µg/mL
CN(C)c1ccc2[nH]c3cc4c(=O)[nH]n(-c5ccccc5)c(=O)c4cc3c2c1 ; strain or isolate: Clinical isolates ; read by: agar ; value: 512 µg/mL
COc1ccc(C(Cc2c(Cl)cccc2Cl)n2ccnc2)cc1 ; strain or isolate: 34 strains ; value: 32 µg/mL
C[C@H]1[C@H](O)[C@@H](C)/C=C/C=C/C=C/C=C/C=C/C=C/C=C/[C@H](O[C@@H]2O[C@H](C)[C@@H](O)[C@H](N)[C@@H]2O)C[C@@H]2O[C@](O)(C[C@@H](O)C[C@@H](O)CC[C@H](O)[C@@H](O)C[C@@H](O)CC(=O)O[C@H]1C)C[C@H](O)[C@H]2C(=O)O ; strain or isolate: 52 strains ; value: 1 µg/mL
CCC(c1ccc(Cl)cc1)C(c1ccc(OC)cc1)n1ccnc1 ; strain or isolate: 28 strains ; value: 16 µg/mL
CCCCCOc1ccc(-c2ccc(-c3ccc(C(=O)N[C@H]4C[C@@H](O)[C@@H](O)NC(=O)[C@@H]5[C@@H](O)[C@@H](C)CN5C(=O)[C@H]([C@H](C)O)NC(=O)[C@H]([C@H](O)[C@@H](O)c5ccc(O)cc5)NC(=O)[C@@H]5C[C@@H](O)CN5C(=O)[C@H]([C@H](C)O)NC4=O)cc3)cc2)cc1 ; strain or isolate: 63 isolates ; value: 0.5 µg/mL
Cn1cc(-c2ccccc2)c(C(c2ccc(-c3ccccc3)cc2)n2ccnc2)c1 ; strain or isolate: 33 strains ; value: 128 µg/mL
Nc1ncccc1-c1cc(Cc2ccc(COc3ccccn3)cc2)no1 ; read by: broth dilution ; value: <0.008 µg/mL
CCC(c1ccc(OC)cc1)C(c1ccc(OC)cc1)n1cncn1 ; strain or isolate: 28 strains ; value: 256 µg/mL
c1ccc(-c2ccc(C(c3c[nH]cc3-c3ccccc3)n3ccnc3)cc2)cc1 ; strain or isolate: 33 strains ; value: 32 µg/mL
COc1ccc(C(Cc2cccc(-n3cccc3)c2)n2ccnc2)cc1 ; strain or isolate: 34 strains ; value: 64 µg/mL
CC[C@@H](c1ccc(Cl)cc1)[C@@H](c1ccc(OC)cc1)n1cnnc1 ; strain or isolate: 28 strains ; value: 128 µg/mL
CNCCN(C)c1ccc2[nH]c3cc4c(=O)[nH]n(-c5ccccc5)c(=O)c4cc3c2c1 ; strain or isolate: Clinical isolates ; read by: agar ; value: 16 µg/mL
CC(=O)N1CCN(c2ccc(OC[C@H]3CO[C@](Cn4ccnc4)(c4ccc(Cl)cc4Cl)O3)cc2)CC1 ; strain or isolate: ATCC 14053 ; value: 0.125 µg/mL
c1ccc(-c2c[nH]cc2C(c2ccc3ccccc3c2)n2ccnc2)cc1 ; strain or isolate: 33 strains ; value: 4 µg/mL
CCC(C)n1ncn(-c2ccc(N3CCN(c4ccc(OC[C@H]5CO[C@](Cn6cncn6)(c6ccc(Cl)cc6Cl)O5)cc4)CC3)cc2)c1=O ; strain or isolate: 40 isolates azole-susceptible ; value: 0.01 µg/mL
C[C@@H]([C@H](N)C(=O)N[C@H](C(=O)O)[C@H]1O[C@@H](n2ccc(=O)[nH]c2=O)[C@H](O)[C@@H]1O)[C@H](O)c1ccc(O)cn1 ; strain or isolate: 15 isolates ; value: 4 µg/mL
COc1ccc(C(Cc2cccc(Cl)c2)n2ccnc2)cc1 ; strain or isolate: 34 strains ; value: 128 µg/mL
C=CCSS(=O)CC=C.CC(=O)N1CCN(c2ccc(OC[C@H]3CO[C@](Cn4ccnc4)(c4ccc(Cl)cc4Cl)O3)cc2)CC1 ; strain or isolate: ATCC 14053 ; value: 0.031 µg/mL
CCC(c1ccc(OC)cc1)C(c1ccc(OC)cc1)n1ccnc1 ; strain or isolate: 28 strains ; value: 256 µg/mL
COc1ccc(C(Cc2cccc(F)c2)n2ccnc2)cc1 ; strain or isolate: 34 strains ; value: 128 µg/mL
CC(=O)c1ccc(Nc2ccnc(Nc3ccc(C(C)=O)cc3)n2)cc1 ; value: 6.6 µg/mL
O=c1[nH]n(-c2ccccc2)c(=O)c2cc3c(cc12)[nH]c1cc2c(=O)[nH]n(-c4ccccc4)c(=O)c2cc13 ; strain or isolate: Clinical isolates ; read by: agar ; value: 16 µg/mL
c1ccc(-c2c[nH]cc2C(c2cccc3ccccc23)n2ccnc2)cc1 ; strain or isolate: 33 strains ; value: 4 µg/mL
COc1ccc(C(=O)C(Cc2ccc(Cl)cc2Cl)c2ccc(Cl)cc2)cc1 ; strain or isolate: 28 strains ; value: 256 µg/mL
Cc1ccc(Nc2ccnc(Nc3ccc(C)cc3)n2)cc1 ; value: 0.9 µg/mL
CC[C@@H]([C@H](C)O)n1ncn(-c2ccc(N3CCN(c4ccc(OC[C@@H]5CO[C@@](Cn6cncn6)(c6ccc(F)cc6F)C5)cc4)CC3)cc2)c1=O ; strain or isolate: 23 strains ; value: 0.03 µg/mL
CCC(c1ccc(Cl)cc1)C(c1ccc(OC)cc1)n1cncn1 ; strain or isolate: 28 strains ; value: 64 µg/mL
Oc1ccc(Nc2ccnc(Nc3ccc(O)cc3)n2)cc1 ; value: 62 µg/mL
Cn1cc(-c2ccccc2)c(C(c2cccc3ccccc23)n2ccnc2)c1 ; strain or isolate: 33 strains ; value: 8 µg/mL
CCC(C)CC(C)CCCCCCCCC(=O)N[C@H]1C[C@@H](O)[C@H](NCCN)NC(=O)[C@@H]2[C@@H](O)CCN2C(=O)[C@H]([C@H](O)CCN)NC(=O)[C@H]([C@H](O)[C@@H](O)c2ccc(O)cc2)NC(=O)[C@@H]2C[C@@H](O)CN2C(=O)[C@H]([C@@H](C)O)NC1=O ; strain or isolate: 40 strains ; value: 0.5 µg/mL
O=[N+]([O-])c1ccc(Nc2ccnc(Nc3ccc([N+](=O)[O-])cc3)n2)cc1 ; value: 0.62 µg/mL
CCC(c1ccc(OC)cc1)C(O)c1ccc(OC)cc1 ; strain or isolate: 28 strains ; value: >256 µg/mL